PubChem BioAssay AID1259414, Drosophila RNAi Screening Center – 2018
In all, the deposit lists about 24,000 reagents; below is a random part of those that have a named target and a result. Over the whole deposit, about 1,210 (5%) were called active. 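Inactive calls also include excluded dsRNAs with several or no targets, genes unexpressed in JW18, and well A1, regardless of score.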 A plus sign joins genes that one reagent is predicted to hit. No sequences are given here.

Assay: 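Genome-wide screen for host control of endosymbiont load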 (primary screen)
Cell system: Drosophila JW18 cells infected with Wolbachia
Reagent: long dsRNA against Drosophila genes, 0.25 µg dsRNA per well of a 384-well plate
Duration: 5 days
Treatment: cells persistently infected with Wolbachia before knock-down; no added drug
Read-out: 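Imaged fluorescence in situ signal for Wolbachia 23S rRNA per DAPI-counted host cell, given as a robust z-score within each plate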
Reading the numbers: Wolbachia per cell robust z: higher = more Wolbachia per host cell than the plate typical
Hit rule: 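Hit when robust z is 1.5 or more, or -1.5 or less, in at least two of three replicates; excludes dsRNAs with several or no targets, genes not expressed in JW18 and well A1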

| target | amplicon | Wolbachia per cell robust z, rep 1 | Wolbachia per cell robust z, rep 2 | Wolbachia per cell robust z, rep 3 | Outcome |
| --- | --- | --- | --- | --- | --- |
| CG11211 | DRSC04851 | 1.23 | 1.52 | 0.252 | inactive |
| insv (insensitive) | DRSC00579 | 0.297 | -0.214 | -0.156 | inactive |
| insv (insensitive) | DRSC28219 | 1.96 | -13.6 | -1.33 | inactive |
| TrpRS-m (Tryptophanyl-tRNA synthetase, mitochondrial) | DRSC10848 | 0.42 | 0.0255 | 0.862 | inactive |
| CG32633 | DRSC18987 | 0.158 | -1.51 | -0.584 | inactive |
| MED11 (Mediator complex subunit 11) | DRSC23091 | -1 | -2.26 | -0.313 | inactive |
| MED11 (Mediator complex subunit 11) | DRSC25948 | -0.129 | -0.621 | 0.00416 | inactive |
| PNPase (Polynucleotide phosphorylase) | DRSC14304 | -1.38 | -0.579 | -0.85 | inactive |
| CG30110 | DRSC05686 | -2.06 | 0.0613 | 0.945 | inactive |
| Elys | DRSC19571 | -1.01 | 0.0342 | 0.315 | inactive |
| CG17294 | DRSC02596 | 0.218 | 0.14 | -0.404 | inactive |
| CG14985 | DRSC08443 | -0.0652 | -0.00606 | -1.71 | inactive |
| CG2926 | DRSC12321 | 0.528 | 0.407 | -0.323 | inactive |
| CG8195 | DRSC07103 | 0.379 | 0.984 | -0.315 | inactive |
| CG34170 | DRSC38736 | 0.675 | -0.239 | 0.843 | inactive |
| CG15506 | DRSC15047 | -2.29 | -0.0602 | 0.149 | inactive |
| CG15506 | DRSC41503 | -0.227 | 1.24 | -0.37 | inactive |
| CG42782 | DRSC41361 | -0.87 | -3.08 | -0.39 | inactive |
| Ank2 (Ankyrin 2) | DRSC08894 | 0.861 | -3.54 | 0.645 | inactive |
| Ank2 (Ankyrin 2) | DRSC09666 | 0.0927 | 0.759 | -4.82 | inactive |
| Ank2 (Ankyrin 2) | DRSC10338 | -0.18 | -0.0264 | 0.935 | inactive |
| Ank2 (Ankyrin 2) | DRSC11278 | 0.0221 | 0.106 | -1.9 | inactive |
| Ank2 (Ankyrin 2) | DRSC22922 | -2.08 | -1.18 | -0.955 | inactive |
| Ank2 (Ankyrin 2) | DRSC29821 | -0.0216 | -0.928 | -0.351 | inactive |
| CG32428 | DRSC11697 | 1.13 | 1.92 | 1.47 | inactive |
| CG32428 | DRSC11768 | -0.339 | 0.526 | -0.862 | inactive |
| CG32428 | DRSC25993 | -0.788 | -0.778 | -2.08 | inactive |
| Actbeta (Activin-beta) | DRSC17185 | 0.893 | 0.682 | 1.07 | inactive |
| Actbeta (Activin-beta) | DRSC17217 | -0.332 | -3.27 | -1.94 | inactive |
| RpS13 (Ribosomal protein S13) | DRSC03419 | 1.16 | 4.29 | 5.7 | active |
| RpS13 (Ribosomal protein S13) | DRSC28558 | 2.94 | 4.33 | 4.85 | active |
| GstZ1 (Glutathione S transferase Z1) | DRSC16478 | -1.56 | 0.735 | 0.0978 | inactive |
| CG11149 | DRSC02130 | -0.714 | 0.187 | 1.15 | inactive |
| IFT54 (Intraflagellar transport 54) | DRSC15469 | -0.108 | -0.225 | 0.383 | inactive |

Active calls, among the entries above:
| target | amplicon | Wolbachia per cell robust z, rep 1 | Wolbachia per cell robust z, rep 2 | Wolbachia per cell robust z, rep 3 | Outcome |
| --- | --- | --- | --- | --- | --- |
| RpS13 (Ribosomal protein S13) | DRSC03419 | 1.16 | 4.29 | 5.7 | active |
| RpS13 (Ribosomal protein S13) | DRSC28558 | 2.94 | 4.33 | 4.85 | active |

Next records follow.
| target | amplicon | Wolbachia per cell robust z, rep 1 | Wolbachia per cell robust z, rep 2 | Wolbachia per cell robust z, rep 3 | Outcome |
| --- | --- | --- | --- | --- | --- |
| CG17192 | DRSC15186 | 0.473 | 1.21 | 1.48 | inactive |
| CG17192 | DRSC24691 | 0.251 | 0.194 | -0.889 | inactive |
| Ir56b (Ionotropic receptor 56b) | DRSC06543 | -2.18 | -1.24 | -2.7 | inactive |
| Ir56b (Ionotropic receptor 56b) | DRSC28758 | 0.858 | -0.609 | -0.85 | inactive |
| CG9130 + CG9133 | DRSC22010 | -0.8 | 0.88 | 0.764 | inactive |
| CG9130 + CG9133 | DRSC29697 | -0.199 | 0.508 | -5.11 | inactive |
| Tmlh (Trimethyllysine hydroxylase) | DRSC15563 | -0.749 | -0.595 | -0.369 | inactive |
| CG32727 | DRSC17519 | 0.62 | 0.0962 | 0.0345 | inactive |
| CG42663 | DRSC06158 | 0.203 | -0.672 | -0.121 | inactive |
| CG42663 | DRSC06404 | -0.879 | -0.176 | 0.206 | inactive |
| CG42663 | DRSC23788 | 0.974 | 1.21 | -1.08 | inactive |
| CG30414 | DRSC04372 | 0.0503 | 0.788 | -0.153 | inactive |
| CG30414 | DRSC28748 | 1.03 | -1.46 | -0.0481 | inactive |
| CG1227 | DRSC12534 | 0.989 | 1.02 | -1.28 | inactive |
| CG1227 | DRSC25952 | -5.39 | 0.2 | -0.702 | inactive |
| CG32112 | DRSC09815 | 0.317 | 0.798 | -0.0235 | inactive |
| CG17780 | DRSC15265 | -2.95 | 0.0125 | 0.692 | inactive |
| CG42367 | DRSC21388 | 0.602 | 0.959 | -0.769 | inactive |
| CG42367 | DRSC24728 | 0.547 | 0.363 | 0.964 | inactive |
| CG13532 | DRSC04174 | 0.505 | -0.283 | -5.17 | inactive |
| mms4 (Methyl methanesulfonate sensitivity 4) | DRSC06249 | 0.409 | -0.671 | -2.87 | inactive |
| CG5556 | DRSC00687 | 0.289 | 1.1 | 0.177 | inactive |
| Rab3-GEF (Rab3 GDP-GTP exchange factor) | DRSC19954 | -1.32 | 0.14 | -1.1 | inactive |
| Rab3-GEF (Rab3 GDP-GTP exchange factor) | DRSC19955 | -0.539 | -1.09 | 0.476 | inactive |
| Rab3-GEF (Rab3 GDP-GTP exchange factor) | DRSC27720 | 0.198 | 1.77 | -0.443 | inactive |
| CG12877 | DRSC14565 | -0.386 | 0.258 | 0.295 | inactive |
| CG3065 | DRSC24998 | 0.427 | 0.64 | -0.777 | inactive |
| CG5921 | DRSC17431 | 0.243 | 0.817 | -0.474 | inactive |
| CG5921 | DRSC18390 | -1.59 | -0.409 | 0.108 | inactive |
| CG5921 | DRSC27493 | 1.18 | 0.681 | 0.482 | inactive |
| rb (ruby) | DRSC18826 | 0.743 | -1.55 | 0.688 | inactive |
| rb (ruby) | DRSC27940 | -1.05 | -1.97 | 0.496 | inactive |
| Ntf-2r (Nuclear transport factor-2-related) | DRSC02019 | -0.126 | 0.93 | 1.66 | inactive |
| Mst77F (Male-specific transcript 77F) | DRSC11871 | -0.892 | -0.162 | -0.709 | inactive |
| CG14743 | DRSC06479 | 0.00146 | 0.254 | 0.317 | inactive |
| Stoml2 (Stomatin like 2) | DRSC04326 | 0.779 | -0.427 | -0.856 | inactive |
| Atat (alpha-tubulin acetylase) | DRSC10392 | 2.14 | -0.111 | -0.573 | inactive |
| CG15059 | DRSC19633 | 0.669 | 0.87 | 0.281 | inactive |
| CG15059 | DRSC28667 | -0.346 | -0.401 | 0.251 | inactive |
| CG15059 | DRSC39001 | 0.318 | 0.224 | 0.186 | inactive |
| CG15059 | DRSC40663 | 0.855 | 0.952 | -0.788 | inactive |
| CG14352 | DRSC00382 | 0.689 | -1.47 | 0.206 | inactive |
| CG5861 | DRSC02907 | -9.22 | -2.36 | -0.128 | active |
| CR41506 (pseudo) | DRSC40589 | -0.298 | -0.9 | 0.515 | inactive |
| CG5543 | DRSC04511 | 0.918 | -1.27 | -1.06 | inactive |
| NO66 (Nucleolar protein 66) | DRSC18252 | -0.392 | -0.847 | -0.155 | inactive |
| CAH1 + Adat1 | DRSC02009 | 1.22 | -0.242 | -0.133 | inactive |
| Caf1-55 (Chromatin assembly factor 1, p55 subunit) | DRSC16596 | 3.51 | 1.86 | 3.03 | active |
| Caf1-55 (Chromatin assembly factor 1, p55 subunit) | DRSC40758 | 1.06 | 1.62 | 2.07 | active |
| CG32278 | DRSC41328 | 1.02 | 1.16 | 1.08 | inactive |
| PPO1 (Prophenoloxidase 1) | DRSC05929 | -0.848 | -0.721 | -3.99 | inactive |
| PPO1 (Prophenoloxidase 1) | DRSC40857 | -2.08 | -1.68 | -1.81 | inactive |
| CG32713 + CG33223 | DRSC28559 | 0.00298 | -0.758 | -0.602 | inactive |
